Data published in patent US7728106B2 (University of Maryland Biotechnology Institute, priority 2005, dated 2010).
Strings that start with PEPTIDE1 are HELM notation: dots part the residues, brackets hold end groups and non-standard residues.

Test: general procedure: Fmoc solid-phase peptide synthesis; PAL-PEG-PS resin
Conditions: conjugation step

“PEPTIDE1{T.S.V.E.I.[AsnG2M3].C.T.R.P.N.N.N.T.R.K.R.I.R.I.Q.R.G.P.G.R.A.F.V.T.I.G.K.I.G.N.M.R.Q.A.H.C.[AsnG2M3].I.S.R.A.[am]}$PEPTIDE1,PEPTIDE1,7:R3-42:R3$$$V2.0” gave a conjugation yield of 72%.
